## Primary screen of a compound library

The values are deposited in ChEMBL (CHEMBL3988442, “University of Dundee, Small-Polar-MMV Screening Library” (2021)).

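Phenotypic screen: M. tuberculosis growth, glucose 7H9 medium, 3 days; the read-out is not stated. Tested at 500 µM. Higher reads as more growth inhibition (inferred: compounds with an IC50 in retests scored well above the rest). Size under these conditions: about 18,000 compounds, about 1,400 of them at 50% or above in at least one test.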

Values are the deposited “Percent Effect”, in %. The record does not define 0% and 100%; most values in the screen are far below 50% and negative numbers occur (in some assays of this library far below -100). This is part of a subset picked to be rich in strong results.

compound: CN(Cc1ccco1)C(=O)c1cc(C2CC2)[nH]n1
effect: 75.42

compound: NS(=O)(=O)c1cc(Cl)cc(CO)c1
effect: 1.49

compound: O=C(Nc1ccccc1F)c1ncccn1
effect: -8.539

compound: CCN(CC)CC(=O)Nc1c2c(nn1C)CCC2
effect: -9.826

compound: OCCN(CCO)CCc1ccccc1Cl
effect: 39.4

compound: CC(C)(C)OCC(O)CN1CCCCC1 (configuration not stated)
effect: 0.5848

compound: CN(C)c1cc(CNC(=O)c2ccccc2F)ccn1
effect: 38.77

compound: Cc1cccc(C)c1-n1nnnc1SCC(N)=O
effect: 39.91

compound: CCCS(=O)(=O)NCCOc1ccc(C#N)cc1
effect: 62.88

compound: CN1CCCCC1C(=O)N1CCOC2(CCCC2)C1 (configuration not stated)
effect: 1.385

compound: Cc1ccc(C(=O)N2CCC(C(C)O)CC2)c(O)c1 (configuration not stated)
effect: 11.43

compound: CC(=O)c1ccc(C(=O)NCCN2CCCOC2=O)s1
effect: -19.32

compound: CCS(=O)(=O)N(C)CCCNc1ccc(Cl)cn1
effect: 80.45

compound: CN(C)S(=O)(=O)c1ccc(C(=O)Nc2nncs2)o1
effect: 9.163

compound: Cc1ocnc1C(=O)N1CCC(O)c2ccccc2C1 (configuration not stated)
effect: 7.556

compound: Cc1ccsc1CN(C)C(=O)Cn1cccnc1=O
effect: 18.5

compound: CC(CO)(CO)NCc1cc2ccccc2s1
effect: 5.287

compound: CC(=O)N1CCC(NC(=O)Cc2ccccc2C)CC1
effect: 9.777

compound: CCCNC(=O)N1CCN(Cc2c(C)noc2C)CC1
effect: 0.3493

compound: CCC1CN(C(=O)Cn2cc(C)c(=O)[nH]c2=O)CCN1 (configuration not stated)
effect: 13.85

compound: Nc1cc(-c2ccc3c(c2)OCCO3)n[nH]1
effect: -15.24

compound: Cc1oc(NC(=O)CSc2cnn[nH]2)c(C#N)c1C
effect: -14.1

compound: NC(=O)CCNC1CCOc2ccccc21 (configuration not stated)
effect: 0.9758

compound: CCOC(=O)N1CCC(N2CCN(CCO)CC2)CC1
effect: 3.766

compound: COC(=O)c1ccc(C(=O)Nc2ncccc2O)s1
effect: 40.51

compound: CCn1cncc1CN1CCCC(NC(C)=O)C1 (configuration not stated)
effect: -2.094

compound: CNC(C(N)=O)c1cc(OC)ccc1Br (configuration not stated)
effect: 33.7

compound: CNC(=O)c1cccc(NCc2c(C)noc2C)c1
effect: 11.88

compound: O=C(CCN1CCC[C@H]1CO)Nc1ccccc1
effect: 14.09

compound: NC(=O)NC(=O)CSc1nnc(-c2ccccc2F)[nH]1
effect: 0.6955

compound: NCCCc1nc(-c2ccncc2)no1
effect: 7.227

compound: CC(CCc1ccc(O)cc1)NCCN1CCOCC1 (configuration not stated)
effect: -4.629

compound: CC(C)c1ccc(S(=O)(=O)C(C)C(N)=O)cc1 (configuration not stated)
effect: 57.41

compound: CNC(=O)CN(CCO)Cc1cc(Br)ccc1F
effect: 25.18

compound: CN(C)CCOc1ccccc1CN
effect: 50.95

compound: COCCNC1CC1
effect: -1.558

compound: COc1ccc(NC(=O)N(CCO)C(C)C)c(C)c1
effect: -2.807

compound: CC(c1cccs1)n1nccc1N (configuration not stated)
effect: 9.581

compound: CC(Nc1nc2ccccc2o1)C(=O)N1CCOCC1 (configuration not stated)
effect: 48.79

compound: Cc1noc(C)c1CN1CCC(O)CC1
effect: -0.2193

compound: CC[C@H]1COCCN1C(=O)CCCn1cccn1
effect: -4.731

compound: Cc1ccc(OC2CCN(C(=O)[C@@H](C)N)CC2)cc1
effect: 43.39

The last 4 entries again:

| compound | effect |
|---|---|
| `CC(Nc1nc2ccccc2o1)C(=O)N1CCOCC1` (configuration not stated) | 48.79 |
| `Cc1noc(C)c1CN1CCC(O)CC1` | -0.2193 |
| `CC[C@H]1COCCN1C(=O)CCCn1cccn1` | -4.731 |
| `Cc1ccc(OC2CCN(C(=O)[C@@H](C)N)CC2)cc1` | 43.39 |